Compound potency records, mixed from different reports. Data source: NIAID ChemDB in PubChem.

All rows: enzyme or target tests; agent: HIV-1; protein: Reverse transcriptase; measure: inhibition

Lines come from different laboratories, so protocols vary. Two numbers with a dash give a range or band. Inhibition is in % at the dose shown (toxicity tests: loss of growth or viability). An empty or dashed field is not shown.

SMILES | tested at | changes | strain or isolate | method | result
CN(c1ncccc1CO)C1CCN(C(=O)c2cc3cc(NS(C)(=O)=O)ccc3[nH]2)CC1 | 50 µM | RT-Y181C | IIIB | nucleotide incorporation | 15%
COC(=O)C(N)CC(=O)COC(=O)[C@H]1O[C@H](O[C@H]2CC[C@]3(C)[C@H]4C(=O)C=C5[C@@H]6C[C@@](C)(C(=O)O)CC[C@]6(C)CC[C@@]5(C)[C@]4(C)CC[C@H]3C2(C)C)[C@H](O[C@@H]2O[C@H](C(=O)O)[C@@H](O)[C@H](O)[C@H]2O)[C@@H](O)[C@@H]1O.S | 250 µg/mL |  |  |  | 72.53%
O=C(OCC(OC(=O)c1ccc(O)cc1)C(OC(=O)c1ccc(O)cc1)C(COC(=O)c1ccc(O)cc1)OC(=O)c1ccc(O)cc1)c1ccc(O)cc1 | 50 µM |  |  | nucleotide incorporation | >99%
Cc1cn([C@H]2C[C@H](F)[C@@H](COP([O-])(=S)OP(=O)(O)C(F)(F)P(=O)(O)O)O2)c(=O)[nH]c1=O | 10 µM |  |  | fluorescence | 0.4%
CC1=C(/C=C/C(C)=C/C=C/C(C)=C/C(=O)O)C(C)(C)CCC1 | 5 µg/mL |  | HTLV-III | nucleotide incorporation | 0%
CC/C=C\C/C=C\C/C=C\CCCCCCCC(=O)OC[C@@H](CO[C@H]1O[C@H](CS(=O)(=O)O)[C@@H](O)[C@H](O)[C@H]1O)OC(=O)CCCCCCCCCCCCCCC | 10 µM |  |  | nucleotide incorporation / radiometric | 100%
Cc1cn([C@H]2C[C@H](N=[N+]=[N-])[C@@H](CP(=O)(O)OP(=O)(O)C(Cl)(Cl)P(=O)(O)O)O2)c(=O)[nH]c1=O | 10 µM |  |  | fluorescence | 30–44%
COc1ccc2[nH]c(=O)oc2c1 | 8 µM |  |  |  | 1.4%
CC(=O)c1ccc(C)cc1NC(C(N)=O)c1c(Cl)cccc1Cl | 4 µg/mL |  |  |  | 59.2%
Nc1nc(Cl)c2ncn([C@H]3C=C[C@@H](COP(=O)(O)OP(=O)(O)OP(=O)(O)O)C3)c2n1 | 10 µM |  |  | fluorescence | 12.3%
C1=Cc2cccnc2N(C2CC2)c2ncccc21 | 1 µM | RT-L100I |  | nucleotide incorporation | 81%
CC(C)CN1C(=O)c2ccccc2Oc2ncccc21 | 1 µM |  |  | HPLC | 29%
CO[C@H]1/C=C/O[C@@]2(C)Oc3c(C)c(O)c4c(O)c(c5c(c4c3C2=O)NC2(CCN(CC(C)C)CC2)N=5)=NC(=O)/C(C)=C\C=C\[C@H](C)[C@H](O)[C@@H](C)[C@@H](O)[C@@H](C)[C@H](OC(C)=O)[C@@H]1C | 150 µg/mL |  |  | nucleotide incorporation | 78%
Nc1ccn([C@@H]2CS[C@H](COP([O-])(=S)OP(=O)(O)C(F)(F)P(=O)(O)O)O2)c(=O)n1 | 10 µM |  |  | fluorescence | 0%
CC(C)=CCc1c2c(c(O)c3c1O[C@@]14C(=C[C@H]5CC1C(C)(C)O[C@]4(C/C=C(\C)CO)C5=O)C3=O)C=CC(C)(C)O2 | 200 µg/mL |  |  | nucleotide incorporation / radiometric | 42.2%
O=C1CSC(c2c(Cl)cccc2Cl)N1Cc1ccco1 | 10 µg/mL |  |  | ELISA | 62%
CC(C)=CCC/C(C)=C/Cc1c(O)c(CC=C(C)C)c2c(c1O)C(=O)C1=C[C@H]3CC4C(C)(C)O[C@](CC=C(C)C)(C3=O)[C@]14O2 | 200 µg/mL |  |  | nucleotide incorporation / radiometric | 64%
Cc1cn([C@H]2C[C@H](N=[N+]=[N-])[C@@H](COP(=S)([S-])OP(=O)(O)C(F)(F)P(=O)(O)O)O2)c(=O)[nH]c1=O | 0.5 µM |  |  | fluorescence | 19%
Cc1cn([C@H]2C[C@H](N=[N+]=[N-])[C@@H](CP(=O)(O)OP(=O)(O)C(F)(F)P(=O)(O)O)O2)c(=O)[nH]c1=O | 10 µM |  |  | fluorescence | 25%
COc1ccc2[nH]cc(CCN)c2c1 | 800 µM |  |  |  | 15.6%
CC(C)=CCC[C@]1(C)C=Cc2c(O)c3c(c(CC=C(C)C)c2O1)O[C@@]12C(=C[C@H]4CC1C(C)(C)O[C@]2(C/C=C(/C)C(=O)O)C4=O)C3=O | 200 µg/mL |  |  | nucleotide incorporation / radiometric | 90%
Cc1cn([C@H]2CC[C@@H](COP([O-])(=S)OP(=O)(O)C(F)(F)P(O)(O)=S)O2)c(=O)[nH]c1=O | 0.5 µM |  |  | fluorescence | 29.1%
CC(=O)N1CCN(C(=O)c2cc(O)c(O)c(O)c2)CC1 | 50 µM |  | BH10 | ELISA / nucleotide incorporation | <5%
Cc1cn([C@H]2CC[C@@H](CC(F)(F)P(=O)(O)OP(=O)(O)NP(=O)(O)O)O2)c(=O)[nH]c1=O | 10 µM |  |  | fluorescence | 41–58%
O=C1CSC(c2cccnc2)N1Cc1ccco1 | 10 µg/mL |  |  | ELISA | 9.41%
CCN1c2ncccc2-c2cnc(C)n2-c2ccc(-c3cn[nH]c3)nc21 | 1 µM |  | LAV | nucleotide incorporation | 95%
O=C1CCSC(c2c(Cl)cccc2Cl)N1Cc1ccco1 | 10 µg/mL |  |  | ELISA | 54.9%
CSc1c(C)c(SC)n2ccncc12 | 70 µM |  | IIIB | fluorescence | ~1%